Anti-infective test results gathered from many reports (values: NIAID ChemDB through PubChem).

All rows: growth or infection tests; species: Candida albicans; read-out: MIC

Neighbouring rows are from separate reports.

structure | strain or isolate | read by | result
NC(=S)c1ccnc(SC2CCCCC2)c1 | 3a | - | 50 µg/mL
Cc1cc(O)c(C(C)C)cc1N1CCCCC1 | ATCC 36232 | - | >143 µg/mL
Cc1ccc(-c2nc3ccc(C)cc3o2)c(C)c1 | - | - | 25 µg/mL
c1ccc(CO/N=C2/c3ccccc3OCC2n2cncn2)cc1 | ATCC 10231 | - | 64 µg/mL
Cc1nc2c(sc(=S)n2-c2ccccc2)c(=O)n1C | DSM 70443 | - | 160 µg/mL
COc1cc(O)c2c(c1)C(=O)c1c(cc3c(c1O)-c1c(cc(C)c(C(=O)NCC(=O)O)c1O)[C@H](O[C@@H]1O[C@H](C)[C@H](N)[C@H](O[C@@H]4OC[C@@H](O)[C@H](O)[C@H]4O)[C@H]1O)[C@H]3O)C2=O | IAM4888 | - | 3.1 µg/mL
C[C@@H](c1ncncc1F)[C@](O)(Cn1cncn1)c1ccc(F)cc1F | ATCC 90028 | broth dilution | 1 µg/mL
O=C(CN1CCOCC1)Nc1nc(-c2ccccc2)cc(-c2ccc(F)cc2)n1 | CaCYP51 | - | 25 µg/mL
CN(CCCC#CC(C)(C)C)c1cccc2c1CCC(=O)N2 | Clinical isolate 3 | - | 15.6 µg/mL
Fc1ccccc1CO/N=C1\c2ccccc2OCC1n1cncn1 | ATCC 10231 | - | >64 µg/mL
CCCn1cc(-c2ccc(Cl)cc2)c(C(c2ccc(Cl)cc2Cl)n2ccnc2)c1 | - | - | 1.7 µg/mL
Cc1ccc(-n2c(Cn3ncc4ccccc4c3=O)n[nH]c2=S)cc1 | ATCC 10231 | - | 512 µg/mL
Cc1cccc(C(=O)CC(N/N=C(\N)c2ccccn2)c2cccnc2)c1 | C873 | - | >160 µg/mL
Cc1ccc2nc(-c3ccc(Cl)cc3Cl)oc2c1 | - | - | 25 µg/mL
Cc1nc2c(sc(=S)n2-c2ccccc2)c(=O)n1N | DSM 70443 | - | 20 µg/mL
Cc1ccc(Nc2nnc(Cn3ncc4ccccc4c3=O)s2)cc1 | ATCC 10231 | - | 128 µg/mL
Cn1cc(-c2ccc(Cl)cc2)c(C(c2ccc(Cl)cc2Cl)n2ccnc2)c1 | - | - | 0.28 µg/mL
CN1CCN(C2=C(Cl)C(=O)c3ccccc3C2=O)CC1 | - | - | 25 µg/mL
N/C(=N\NC(CC(=O)c1cccc(Cl)c1)c1ccncc1)c1ccccn1 | C873 | - | 40 µg/mL
Fc1ccccc1CO/N=C1/c2ccccc2OCC1n1cncn1 | ATCC 10231 | - | >64 µg/mL
CSc1ccc(-c2c[nH]cc2C(c2ccc(Cl)cc2Cl)n2ccnc2)cc1 | - | - | 2.8 µg/mL
COc1ccc(C2C(C)C(=O)C(C)C(c3ccc(OC)cc3)N2OCCc2nc3ccccc3o2)cc1 | - | - | 50 µg/mL
Clc1ccc(COC(Cn2ccnc2)c2ccc(Cl)cc2Cl)c(Cl)c1 | MTCC 277 | broth dilution | >78.1 µg/mL
CCCCOc1ccc(C(=O)O)c(O)c1 | Clinical isolates | - | 125–250 µg/mL
Cc1ccc2oc(-c3ccccc3F)nc2c1 | - | - | 12.5 µg/mL
O=c1c2ccccc2cnn1Cc1nnc(NCc2ccccc2)s1 | ATCC 10231 | - | 128 µg/mL
Cc1ccc2oc(-c3ccccc3[N+](=O)[O-])nc2c1 | - | - | 25 µg/mL
CCCCOc1ccc(C(=O)NN)c(O)c1 | Clinical isolates | - | 125–250 µg/mL
CCCCCCCCSc1cc(C(N)=S)ccn1 | 42 | - | 50 µg/mL
CCCCCCCCOc1ccc(C(=O)O)c(OC)c1 | Clinical isolates | - | 125–250 µg/mL
S=c1nc2c(n[nH]1)Cc1ccccc1N2 | ATCC 2091 | - | 50 µg/mL
CC(C)C1Nc2cc(C(C)(C)C)cc(C(C)(C)C)c2O1 | ATCC 44859 | - | >500 µM
Cc1c(Sc2ccccc2)[n+](=O)c2cc(Cl)ccc2n1[O-] | Clinical isolate 24 | - | 31.25 µg/mL
Clc1ccc(CO/N=C2\c3ccccc3OCC2n2cncn2)c(Cl)c1 | ATCC 10231 | - | 64 µg/mL
Cc1ccc(-c2cnc(Nc3ccc(OCCCN4CCN(C)CC4)nc3)c(C(N)=O)n2)c(F)c1 | - | resazurin | >32 µg/mL
COc1ccccc1-c1nc2cc(C)ccc2o1 | - | - | 25 µg/mL
CC1(C)CC(=O)c2cc(-c3nnc4n3-c3nc5ccccc5nc3NN4)[nH]c2C1 | ATCC 2091 | - | 200 µg/mL
CCCCCSc1cc(C(N)=S)ccn1 | 176 | - | 50 µg/mL
CCCOc1cc(O)cc(C(=O)O)c1 | Clinical isolates | - | 125–250 µg/mL
Cc1ccc(C(=O)CC(N/N=C(\N)c2ccccn2)c2ccncc2)cc1 | C873 | - | 80 µg/mL
CNC1=CC(=O)c2ccccc2C1=O | - | - | 6.3 µg/mL
O=C1CC(c2ccc(Cl)cc2)N(OCCc2nc3ccccc3o2)C(c2ccc(Cl)cc2)C1 | - | - | 50 µg/mL
Brc1ccc(CO/N=C2/c3ccccc3OCC2n2cncn2)cc1 | ATCC 10231 | - | 16 µg/mL
N/C(=N\NC(CC(=O)c1ccc(Cl)cc1)c1ccccn1)c1ccccn1 | C873 | - | 40 µg/mL
NC1=C(Cl)C(=O)c2ccccc2C1=O | - | - | 6.3 µg/mL
COC(=O)/C=C/c1ccc(OC)cc1 | - | broth dilution / resazurin | 500 µg/mL
Cc1ccc(-c2cnc(Nc3cnc(OCCCN4CCN(C)CC4)nc3)c(C(N)=O)n2)c(F)c1 | - | resazurin | >32 µg/mL
COc1ccc(-c2nc3ccc(C)cc3o2)c(OC)c1 | - | - | 25 µg/mL
CC1(C)CC(=O)c2cc(C3CC(c4ccc(Cl)cc4)=NO3)[nH]c2C1 | ATCC 2091 | - | 200 µg/mL
CCCCCCCCCSc1cc(C(N)=S)ccn1 | 176 | - | >200 µg/mL
c1ccc(CO/N=C2\c3ccccc3OCC2n2cnnc2)cc1 | ATCC 10231 | - | 64 µg/mL
O=C1C(=O)c2ccccc2C(O)=C1Nc1cccc(C(=O)O)c1 | - | - | 100 µg/mL
Cn1cc(-c2ccccc2)c(C(c2cccc3ccccc23)n2ccnc2)c1 | - | - | 6 µg/mL
Cc1ccc2nc(-c3ccccc3[N+](=O)[O-])oc2c1 | - | - | 25 µg/mL
O=c1c2ccccc2cnn1CCc1nnc(Nc2ccc(Cl)cc2)s1 | ATCC 10231 | - | 128 µg/mL
N/C(=N\NC(CC(=O)c1ccc(Cl)c(Cl)c1)c1ccccn1)c1ccccn1 | C873 | - | 20 µg/mL
CCOc1cc2c(cc1F)n([O-])c(C)c(S(=O)(=O)c1ccccc1)[n+]2=O | Clinical isolate 19 | - | 7.8 µg/mL
CCc1ccc(NC2=C(Br)C(=O)c3ccccc3C2=O)cc1 | - | - | 25 µg/mL
O=c1c2ccccc2cnn1Cc1nnc(Nc2ccc(Cl)cc2)s1 | ATCC 10231 | - | 32 µg/mL
Clc1cc(Cl)c(OCC#CI)cc1Cl | - | - | 6.25 µg/mL
Clc1ccc(CO/N=C2/c3ccccc3OCC2n2cncn2)cc1Cl | ATCC 10231 | - | >64 µg/mL
Cc1nc(Nc2ccccc2)c2sc(=S)n(-c3ccccc3)c2n1 | DSM 70443 | - | 50 µg/mL
Fc1ccc(CO/N=C2/c3ccccc3OCC2n2cncn2)cc1 | ATCC 10231 | - | 64 µg/mL
Cc1cccc(C(=O)CC(N/N=C(\N)c2ccccn2)c2ccccn2)c1 | C873 | - | 80 µg/mL
CCCCCCCC/C=C\CCCCCCCC(=O)N[C@H](C(=O)N1C[C@H](C)C[C@H]1C(=O)N[C@H](C(=O)N[C@@H](CCO)C(=O)N[C@@H](C)CO)C(C)C)[C@@H](C)O | MY1055 | broth dilution / visual reading | >32 µg/mL
Clc1ccc(CO/N=C2/c3ccccc3OCC2n2cncn2)c(Cl)c1 | ATCC 10231 | - | 64 µg/mL
COc1ccc(Nc2nnc(Cn3ncc4ccccc4c3=O)s2)cc1 | ATCC 10231 | - | 32 µg/mL
CC(C)(C)c1cc(C(C)(C)C)c2oc(C(N)=O)nc2c1 | ATCC 44859 | - | 62.5 µM
Cc1ccc(NC2=C(O)c3ccccc3C(=O)C2=O)cc1 | - | - | 100 µg/mL
CCC(C)CC(C)CCCCCCCCC(=O)N[C@H]1C[C@@H](O)[C@H](NCCN)NC(=O)[C@@H]2[C@@H](O)CCN2C(=O)[C@H]([C@H](O)CCN)NC(=O)[C@H]([C@H](O)[C@@H](O)c2ccc(O)cc2)NC(=O)[C@@H]2C[C@@H](O)CN2C(=O)[C@H]([C@@H](C)O)NC1=O | OY-31.5 | - | 0.03 µg/mL
Cc1ccc(C(=O)CC(N/N=C(\N)c2ccccn2)c2cccnc2)cc1 | C873 | - | >160 µg/mL
Cc1nc2c(sc(=S)n2C2CC2)c(=O)[nH]1 | DSM 70443 | - | >200 µg/mL
COc1ccc(C2CC(=O)C(C)C(c3ccc(OC)cc3)N2OCCc2nc3ccccc3o2)cc1 | - | - | 50 µg/mL
Cc1nc2c(sc(=S)n2-c2ccccc2)c(=O)[nH]1 | DSM 70443 | - | >200 µg/mL
Cc1c(Sc2ccccc2)[n+](=O)c2cc(C(F)(F)F)ccc2n1[O-] | Clinical isolate 21 | - | 7.8 µg/mL
CCCCCOc1ccc(C(=O)O)c(O)c1 | Clinical isolates | - | 125–250 µg/mL
N=Nc1c(Cl)c(O)c2ccccc2c1O | - | - | 100 µg/mL

Again, the opening 10 rows:

NC(=S)c1ccnc(SC2CCCCC2)c1 ; strain or isolate: 3a ; result: 50 µg/mL
Cc1cc(O)c(C(C)C)cc1N1CCCCC1 ; strain or isolate: ATCC 36232 ; result: >143 µg/mL
Cc1ccc(-c2nc3ccc(C)cc3o2)c(C)c1 ; result: 25 µg/mL
c1ccc(CO/N=C2/c3ccccc3OCC2n2cncn2)cc1 ; strain or isolate: ATCC 10231 ; result: 64 µg/mL
Cc1nc2c(sc(=S)n2-c2ccccc2)c(=O)n1C ; strain or isolate: DSM 70443 ; result: 160 µg/mL
COc1cc(O)c2c(c1)C(=O)c1c(cc3c(c1O)-c1c(cc(C)c(C(=O)NCC(=O)O)c1O)[C@H](O[C@@H]1O[C@H](C)[C@H](N)[C@H](O[C@@H]4OC[C@@H](O)[C@H](O)[C@H]4O)[C@H]1O)[C@H]3O)C2=O ; strain or isolate: IAM4888 ; result: 3.1 µg/mL
C[C@@H](c1ncncc1F)[C@](O)(Cn1cncn1)c1ccc(F)cc1F ; strain or isolate: ATCC 90028 ; read by: broth dilution ; result: 1 µg/mL
O=C(CN1CCOCC1)Nc1nc(-c2ccccc2)cc(-c2ccc(F)cc2)n1 ; strain or isolate: CaCYP51 ; result: 25 µg/mL
CN(CCCC#CC(C)(C)C)c1cccc2c1CCC(=O)N2 ; strain or isolate: Clinical isolate 3 ; result: 15.6 µg/mL
Fc1ccccc1CO/N=C1\c2ccccc2OCC1n1cncn1 ; strain or isolate: ATCC 10231 ; result: >64 µg/mL

Two numbers with a dash give a range or band. An empty or dashed field is not shown.